Measurements from US20240067634A1, “INHIBITORS OF NEF DOWNMODULATION” (priority 2020, published 2024).

Each substance was assayed against HIV-1 Nef (Human immunodeficiency virus 1, UniProt P03406) (assay: Anti-Nef activity: reversal of Nef-dependent MHC-I HLA-A2 downmodulation, flow cytometry).
Type: cell-based
Procedure: Determination of anti-Nef activity: To identify molecules with enhanced Nef inhibition, decreased toxicity and decreased inhibition of lysosomes, the analogs of the disclosure are screened initially for Nef inhibitory activity using a high throughput assay in HIV-1 infected CEM-A2 cells. These cells are infected with an HIV-1 reporter construct for 48 hours and then exposed to potential inhibitors for 24 hours. Cells are harvested and stained for flow cytometric analysis of HLA-A2 surface expression, and the fold downmodulation of HLA-A2 are calculated by comparing expression on uninfected cells to that on infected cells.
PBMCs is isolated from leukopaks, CD8-depleted, and stimulated with PHA.
To assess their toxicity, an MTT assay was used, which measures […] dehydrogenase activity. Metabolically active cells reduce MTT to MTT-formazan leading to a color change. For this analysis, PHA-activated primary human PBMCs were exposed to a range of concentrations of each drug continuously for 72 hours of culture.

| Substance | IC50 |
| --- | --- |
| 19-Deoxy-20-ene Baf A1 | 147 nM |
| 19-Deoxy-21-Methoxy Baf A1 | 20.1 nM |
| 19-Deoxy-21-allylester Baf A1 | 56 nM |
